Key:
[1] = biological target: P5 presented by H-2^d (mouse)
[2] = biological target: P5 presented by H-2^b (mouse)
[3] = biological target: P1 presented by H-2^b (mouse)
[4] = biological target: P5 presented by H-2^k (mouse)
[5] = biological target: P1 presented by H-2^k (mouse)

T cells of Balb/c (H-2^d) mice primed in vivo with serovar B EBs (cells without a defined receptor)
Stimulation Index [1]: 4.1 SI

T cells of C57BL/10 (H-2^b) mice primed in vivo with serovar B EBs (cells without a defined receptor)
Stimulation Index [2]: 1.5 SI
Stimulation Index [3]: < 1 SI

T cells of CBA (H-2^k) mice primed in vivo with serovar B EBs (cells without a defined receptor)
Stimulation Index [4]: 1.35 SI
Stimulation Index [5]: 1.45 SI

Source: patent US5882645, “Peptide compounds” (dated 1999)
